The list shows a part of the results, in another mix than the full data. Potency and affinity values are given separately. Activity calls are given as the source filed them. No rule for the calls is given here.

This test in a line: mammalian cell cytotoxicity, dose response, cytotoxicity control (AID 434958).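 Also: cells exposed to compound for 72 hours before readout.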 Conditions: cytotoxicity counter-screen; at 40 µM (top of the series). (Counterscreens check selectivity or assay interference.)
A word on the viability: it is a read-out of living cells in per cent, often relative to untreated cells. In the case of `CCOC(=O)Nc1ccc([As](=O)(O)O)c(O)c1`, the viability was inactive: 102%.
Then `O=[As](O)(c1ccc(O)cc1)c1ccccc1O`, with inactive: 104%; and `Nc1ccc([As](=O)(O)c2ccc([N+](=O)[O-])cc2)cc1`, with inactive: 99.3%; and `Nc1ccc([As](=O)(O)c2ccc(N)cc2)cc1`, with inactive: 94.7%.

These data come from PubChem BioAssay AID434958 (Southern Research Specialized Biocontainment Screening …, 2010).
